Compound potency records, mixed from different reports. Data source: NIAID ChemDB in PubChem.

Shared fields: whole-cell or culture tests; species: HIV-1; endpoint: inhibition

a–b is a range or a potency band. Blank or dashed fields: not listed here. Neighbouring rows are from separate reports. Inhibition is in % at the dose shown (toxicity tests: loss of growth or viability).

smiles | mutations | dose | method | strain or isolate | cell line | conditions | result
NCCNS(=O)(=O)c1ccc(Cl)c2ccncc12 | - | 16.7 µM | - | LAI | - | - | 3%
CCOC(=O)c1cn2c(c1O)C(=O)N(Cc1ccc(Cl)c(Cl)c1)CC2 | - | 0.31 µM | p24 / ELISA | IIIB | MT-4 | - | >95%
COc1cccc(C2ON=C(c3ccccc3)N2C23CC4CC(CC(C4)C2)C3)c1 | - | 2 µM | cytopathic effect / XTT | - | CEM | - | 34.38%
O=C(Cc1ccc(Cl)cc1)Nc1nc(-c2ccccc2)cs1 | - | 50 µg/mL | - | NL4-3 | TZM-bl | - | 78.46%
COc1c(C)c2c(c(O)c1C/C=C(\C)CCC(=O)O)C(=O)OC2 | - | 1 µM | RT activity | SF162 | PBL(CD4+) + PBL | - | 92%
C[C@@H]1CN(C(=O)c2cccc(N)c2)CCN1C(=O)C(=O)c1c[nH]c2cccc(F)c12 | - | 10 µM | luciferase | - | HeLa + HELA CD4+/CCR5 | - | >98%
CN(C(=O)[C@H](Cc1ccccc1)NC(=O)CNC(=O)c1ccccc1)c1ccccc1 | - | 0.1 µM | GFP | NL4-3 | TZM-gfp | - | 15.63%
C/C=C/C=C/C(=O)[C@@]12O[C@@H]1[C@](C)(O)C(O)=C(C)C2=O | - | 200 µg/mL | RT activity / ELISA | - | - | - | 63.8%
O=C(C(=O)N1CCN(C(=O)c2ccccc2)CC1C(=O)O)c1c[nH]c2cccc(F)c12 | - | 10 µM | luciferase | - | HeLa + HELA CD4+/CCR5 | - | 74%
CC(C)C[C@@H](C=O)NC(=O)[C@H](CC(C)C)NC(=O)[C@H](CC(C)C)NC(=O)OCc1ccccc1 | - | 40 µM | p24 | NL4-3 | A3.01 | - | 54%
COc1ccccc1CC(=O)Nc1nc(-c2ccccc2)cs1 | - | 50 µg/mL | - | NL4-3 | TZM-bl | - | 89.63%
OCCCCCCOc1ccc(-c2ccccc2)cc1 | - | 15 µg/mL | p24 | GB8 | JM | - | 93%
CC(CO[C@@H]1O[C@H](COS(=O)(=O)O)[C@@H](OS(=O)(=O)O)[C@H](O[C@@H]2O[C@H](COS(=O)(=O)O)[C@@H](OS(=O)(=O)O)[C@H](O[C@@H]3O[C@H](COS(=O)(=O)O)[C@@H](OS(=O)(=O)O)[C@H](O[C@@H]4O[C@H](COS(=O)(=O)O)[C@@H](OS(=O)(=O)O)[C@H](O[C@@H]5O[C@H](COS(=O)(=O)O)[C@@H](OS(=O)(=O)O)[C@H](OS(=O)(=O)O)[C@H]5OS(=O)(=O)O)[C@H]4OS(=O)(=O)O)[C@H]3OS(=O)(=O)O)[C@H]2OS(=O)(=O)O)[C@H]1OS(=O)(=O)O)CC(C)(C)C | - | 0.001 µg/mL | cytopathic effect / MTT | IIIB | MT-4 | - | 40%
COc1ccc(/C=C/C(=O)O[C@H]2[C@H](OC3OC=C(C(=O)O)[C@H]4CC[C@](C)(O)[C@@H]34)O[C@H](CO)[C@@H](O)[C@@H]2O)cc1 | - | 2.5 µg/mL | p24 / antigen / PCR | SA | PBMC | - | >99%
COc1ccc(/C=C2/C(=O)C(c3ccccc3)N(c3ccccc3)C2=O)cc1OC | - | 0.2 µM | cytopathic effect / XTT | - | CEM + CEM-SS | - | 94%
CC(C)C[C@H](NC(=O)[C@@H](O)[C@H](N)Cc1ccccc1)C(=O)O | - | 200 µg/mL | RT activity | IIIB | HUT78/HIV-1(IIIB) + HUT 78 | chronic infection | 19%
CCCCCCCCCCCCC/C=C/[C@@H](O)C(CO[C@@H]1O[C@H](CO)[C@H](O)[C@H](O)[C@H]1O)NC(=O)CCCCCOc1ccc2[nH]c(C(=O)N3CCN(c4ncccc4NC(C)C)CC3)cc2c1 | - | 0.1 µM | p24 | IIIB | H9 | - | 66%
CC(C)CN(C[C@@H](O)[C@H](Cc1ccccc1)NC(=O)O[C@H]1CO[C@H]2OCC[C@H]21)S(=O)(=O)c1ccc2nc(NC3CCN(C4CCCC4)CC3)sc2c1 | - | 0.007 µM | p24 / ELISA | LAI | PBMC | - | 90%
Cc1c2ccnc(Cl)c2cc2c3cn(C)ccc-3nc12 | - | 1 µM | p24 / ELISA | - | PBMC | - | 78%
CCOCn1c2c(c(=O)[nH]c1=O)CCCc1ccccc1-2 | - | 5 µM | - | IIIB | C8166 | - | 36%
CNC(=O)c1cn2c(c1O)C(=O)N(Cc1ccc(F)cc1)CC2 | - | 10 µM | p24 / ELISA | IIIB | MT-4 | - | >95%
COc1cccc2[nH]cc(C(=O)C(=O)N3CCN(C(=O)c4ccccc4)C[C@@H]3C)c12 | - | 10 µM | luciferase | - | HeLa + HELA CD4+/CCR5 | - | >98%
NCCNS(=O)(=O)c1cccc2cnccc12 | - | 16.7 µM | - | LAI | - | - | 17.5%
CC(C)c1cc(=O)oc2c(CN3CCCC3)c(O)c3c(c12)OC(C)(C)C=C3 | - | 50 µM | RT activity / visual reading | 899A | MT-4 | - | 14%
Cc1cc(C)cc(S(=O)(=O)c2c(C(=O)NCC(=O)NC(C)C(=O)NN)[nH]c3ccc(Cl)cc23)c1 | - | 1 µM | p24 | EFV-resistant (RT K103R V179D P225H) | C8166 | - | 90%
Cc1cn([C@H]2C[C@H](N=[N+]=[N-])[C@@H](COC(=O)C3=CN(C)C=CC3)O2)c(=O)[nH]c1=O | - | 5 µM | p24 | CD 451 | PHA-PBL + PBL | - | 99.9%
CS(C)=O | - | 16.7 µM | - | LAI | - | - | 2%
CCc1c(Cc2c(Cl)cccc2Cl)nc(SC/C=C/c2ccc(C#N)cc2)[nH]c1=O | RT-Y181C | 54.82 µM | cytopathic effect / MTT | NNRTI-resistant | MT-4 | - | 41%
O=S(=O)(c1cccc2c(Cl)cccc12)N1CCCNCC1 | - | 16.7 µM | - | LAI | - | - | 8.25%
CN1CCn2c3c(c(O)c2C1=O)C(=O)N(Cc1ccc(F)cc1)CC3 | - | 0.16 µM | p24 / ELISA | IIIB | MT-4 | - | >95%
CC1=C(C(=O)OCc2ccccc2)C(c2ccccc2)NC(=O)N1 | - | 100 µM | p24 / ELISA | - | HEK293T | - | 23.7%
Cc1ccc(N(C)C(=O)[C@H](Cc2ccccc2)NC(=O)Cn2cc(C)c(=O)[nH]c2=O)cc1 | - | 0.1 µM | GFP | NL4-3 | TZM-gfp | - | 8.34%
Cc1cn([C@@H]2CC=C[C@@H](CO)O2)c(=O)[nH]c1=O | - | 100 µM | ELISA | IIIB | MT-4 | - | 0%
CN(C)c1ccc(C2ON=C(c3ccccc3)N2C23CC4CC(CC(C4)C2)C3)cc1 | - | 0.63 µM | cytopathic effect / XTT | - | CEM | - | 30.81%
CCC1CN(C(=O)C(=O)c2c[nH]c3c(C(=O)OC)cccc23)CCN1C(=O)c1ccccc1 | - | 10 µM | luciferase | - | HeLa + HELA CD4+/CCR5 | - | >98%
CCCCCCCCCCCCC/C=C/[C@@H](O)C(CO)NC(=O)CCC(=O)Nc1ccc2[nH]c(C(=O)N3CCN(c4ncccc4NC(C)C)CC3)cc2c1 | - | 0.1 µM | p24 | IIIB | H9 | - | 59%
Clc1ccc(C2ON=C(c3ccccc3)N2C23CC4CC(CC(C4)C2)C3)cc1 | - | 6.3 µM | cytopathic effect / XTT | - | CEM | - | 28.71%
CN(C)c1ccc(Nc2c3ccc(NC(=O)CCN4CCCC4)cc3nc3cc(NC(=O)CCN4CCCC4)ccc23)cc1 | - | 8.4 µM | GFP / single cycle | IIIB | MT-4 | - | 58%
CC(=O)OC[C@H]1O[C@@H](n2ccc(N)nc2=O)CS1 | - | 10 µM | syncytia | BRU | MT-4 | - | 100%
N#Cc1ccc(C2ON=C(c3ccccc3)N2C23CC4CC(CC(C4)C2)C3)cc1 | - | 63 µM | cytopathic effect / XTT | - | CEM | - | 39.24%
CC(C)c1cc(=O)oc2c(C3C=NNC(c4cccs4)=N3)c(O)c3c(c12)OC(C)(C)C=C3 | - | 50 µM | RT activity / visual reading | 899A | MT-4 | - | 43%
Cc1cc2ccccc2c(-c2ccc3c4c(ccnc24)CCO3)c1[C@H](OC(C)(C)C)C(=O)O | - | 0.035 µM | p24 | BaL | PBMC | - | 95%
O=c1ccn([C@@H]2CC=C[C@@H](CO)O2)c(=O)[nH]1 | - | 100 µM | ELISA | IIIB | MT-4 | - | 0%
CC#C[C@]1(O)CC[C@H]2[C@@H]3CCC4=CC(=O)CCC4=C3[C@@H](c3ccc(N(C)C)cc3)C[C@@]21C | - | 1 µM | p24 / ELISA | 89.6 | PBMC | - | 60–70%
Nc1ccn([C@@H]2CC=C[C@@H](CO)O2)c(=O)n1 | - | 100 µM | ELISA | IIIB | MT-4 | - | 0%
O=C(O)[C@H]1O[C@@H](Oc2cc3oc(-c4ccccc4)cc(=O)c3c(O)c2O)[C@H](O)[C@@H](O)[C@@H]1O | - | 40 µM | - | ENV(BAL31) | HOS-CD4-CXCR4 + HOS | - | 80%
CC(C)[C@H](NC(=O)[C@H](CO)NC(=O)[C@@H](N)CS)C(=O)N[C@H](C(=O)N[C@@H](CS)C(=O)NCC(=O)O)[C@@H](C)O | - | 1.32 µM | p24 | IIIB | PBMC(PHA STIM.) + PBMC | - | 74%
CCCCCCCCCCCCCCCCOCC(COP(=O)(O)O)OCCCCCCCCCCCCCCCC | - | 5 µM | cytopathic effect / MTT | IIIB | MT-4 | - | 4%
CC(C)[C@H](NC(=O)[C@H](CO)NC(=O)[C@H](CS)NC(=O)CCC(=O)NCCCOCCOCCCN)C(=O)N[C@H](C(=O)N[C@@H](CS)C(=O)NCC(=O)O)[C@@H](C)O | - | 0.3 µM | p24 | p13 | PBMC(PHA STIM.) + PBMC | - | 78%
CNCCNS(=O)(=O)c1cccc2cnccc12 | - | 16.7 µM | - | LAI | - | - | 24.9%
CC(=O)Nc1ccn([C@H]2CS[C@@H](COC(C)=O)O2)c(=O)n1 | - | 100 µM | syncytia | BRU | MT-4 | - | 100%
C[C@@H]1CN(C(=O)c2ccccc2)CCN1C(=O)C(=O)c1c[nH]c2cccc(Cl)c12 | - | 10 µM | luciferase | - | HeLa + HELA CD4+/CCR5 | - | 77%
Cc1ccccc1CC(=O)Nc1nc(-c2ccccc2)cs1 | - | 50 µg/mL | - | NL4-3 | TZM-bl | - | 80.65%
O=C1c2c(O)c3n(c2CCN1Cc1ccc(F)cc1)CCN(Cc1ccc(F)cc1)C3=O | - | 0.07 µM | p24 / ELISA | IIIB | MT-4 | - | >95%
Cc1cccc(C2ON=C(c3ccccc3)N2C23CC4CC(CC(C4)C2)C3)c1 | - | 2 µM | cytopathic effect / XTT | - | CEM | - | 31.95%
C[C@@H](O)[C@H](N)C(=O)N[C@H](C(=O)N[C@@H](CC(N)=O)C(=O)N[C@H](Cc1ccc(O)cc1)C(=O)N[C@H](C(=O)O)[C@@H](C)O)[C@@H](C)O | - | 0.001 µM | RT activity | LAV | A3.01 | - | 29.4%
O=c1ccn([C@@H]2C=CC[C@@H](CO)O2)c(=O)[nH]1 | - | 100 µM | ELISA | IIIB | MT-4 | - | 0%
CC(=O)Nc1ccn([C@H]2CS[C@@H](CO)O2)c(=O)n1 | - | 100 µM | syncytia | BRU | MT-4 | - | 100%
O=C1Nc2ccc(Cl)cc2C(C#Cc2cccnc2)(C(F)(F)F)O1 | - | 0.00367 µM | - | - | - | - | 90%
Cc1cn(CC(=O)N[C@@H](Cc2ccccc2)C(=O)N(C)c2cccc(Cl)c2)c(=O)[nH]c1=O | - | 0.1 µM | GFP | NL4-3 | TZM-gfp | - | 38.95%
CC1=C(C(=O)O)C(c2ccc(F)cc2)NC(=O)N1 | - | 100 µM | p24 / ELISA | - | HEK293T | - | 28.8%
CC(C)c1cc(=O)oc2c(C3C=NNC(Sc4ccccc4)=N3)c(O)c3c(c12)OC(C)(C)C=C3 | - | 50 µM | RT activity / visual reading | 899A | MT-4 | - | 23%
Nc1ccc(C(=O)N2CCN(C(=O)C(=O)c3c[nH]c4cccc(Cl)c34)CC2)cc1 | - | 10 µM | luciferase | - | HeLa + HELA CD4+/CCR5 | - | 98%
CC1=C(C(=O)O)C(c2ccccc2Cl)NC(=O)N1 | - | 100 µM | p24 / ELISA | - | HEK293T | - | 40.2%
CC(=O)N(C)CCN(C)c1nc(C(=O)NCc2ccc(F)cc2)c(O)c2ncccc12 | - | 0.625 µM | p24 | - | MT-4 | 50% human serum | >95%
CCCCCCCCCCCCC/C=C/[C@@H](O)C(CO)NC(=O)CCCCCCCCC(=O)Nc1ccc2[nH]c(C(=O)N3CCN(c4ncccc4NC(C)C)CC3)cc2c1 | - | 0.1 µM | p24 | IIIB | H9 | - | 66%

Repeating the final 6 entries:

smiles | mutations | dose | method | strain or isolate | cell line | conditions | result
CC1=C(C(=O)O)C(c2ccc(F)cc2)NC(=O)N1 | - | 100 µM | p24 / ELISA | - | HEK293T | - | 28.8%
CC(C)c1cc(=O)oc2c(C3C=NNC(Sc4ccccc4)=N3)c(O)c3c(c12)OC(C)(C)C=C3 | - | 50 µM | RT activity / visual reading | 899A | MT-4 | - | 23%
Nc1ccc(C(=O)N2CCN(C(=O)C(=O)c3c[nH]c4cccc(Cl)c34)CC2)cc1 | - | 10 µM | luciferase | - | HeLa + HELA CD4+/CCR5 | - | 98%
CC1=C(C(=O)O)C(c2ccccc2Cl)NC(=O)N1 | - | 100 µM | p24 / ELISA | - | HEK293T | - | 40.2%
CC(=O)N(C)CCN(C)c1nc(C(=O)NCc2ccc(F)cc2)c(O)c2ncccc12 | - | 0.625 µM | p24 | - | MT-4 | 50% human serum | >95%
CCCCCCCCCCCCC/C=C/[C@@H](O)C(CO)NC(=O)CCCCCCCCC(=O)Nc1ccc2[nH]c(C(=O)N3CCN(c4ncccc4NC(C)C)CC3)cc2c1 | - | 0.1 µM | p24 | IIIB | H9 | - | 66%